Compound potency records, mixed from different reports. Data source: NIAID ChemDB in PubChem.

Common to all: enzyme or target tests

An empty or dashed field is not shown.

{"smiles": "CNC(=O)c1ccc(NC(=O)CSc2nnnn2-c2ccc(C)cc2Cl)c(Cl)c1", "read by": "PicoGreen / fluorescence", "endpoint": "IC50", "agent": "HIV-1", "strain or isolate": "WT", "target": "Reverse transcriptase", "result": "<1 µM"}
{"smiles": "CC(C)(C)NC(=O)[C@@H]1CCCN1C(=O)[C@@H](O)[C@H](Cc1ccccc1)NC(=O)[C@H](CS(C)(=O)=O)NC(=O)CNc1cccc2ccccc12", "endpoint": "IC50", "agent": "HIV-1", "target": "Protease", "result": "~0.05 µM"}
{"smiles": "CC(C)(CCCCCNC(=O)N1CCCC1)CN(C[C@@H](O)[C@H](Cc1ccccc1)NC(=O)O[C@H]1CO[C@H]2OCC[C@H]21)S(=O)(=O)c1ccc2c(c1)OCO2", "read by": "fluorescence", "endpoint": "Ki", "agent": "HIV-1", "target": "Protease", "result": "<0.001 µM"}
{"smiles": "O=C(c1ccccc1)c1cc(=O)c(O)c2n1CCN(Cc1ccc(Cl)c(Cl)c1)C2=O", "read by": "ELISA", "endpoint": "IC50", "agent": "HIV-1", "target": "Integrase", "result": "<0.01 µM"}
{"smiles": "CC(C)(C#Cc1ccc(NC(=O)CSc2nnnn2-c2ccc(C3CC3)cc2Cl)c(Cl)c1)NCc1ccccc1O", "read by": "PicoGreen / fluorescence", "endpoint": "IC50", "agent": "HIV-1", "strain or isolate": "WT", "target": "Reverse transcriptase", "result": "<1 µM"}
{"smiles": "Nc1ccn([C@@H]2CS[C@H](COP(=O)(O)OP(=O)(O)OP(=O)(O)O)O2)c(=O)n1", "read by": "radiometric", "changes": "RT-D67N K70R T215Y K219Q", "endpoint": "Ki", "agent": "HIV", "target": "Reverse transcriptase", "result": "0.595 µM"}
{"smiles": "CC(C)(C)NC(=O)[C@H]1N(C(=O)[C@@H](O)[C@H](Cc2ccccc2)NC(=O)[C@H](CC(N)=O)NC(=O)OCc2ccccc2)CSC1(C)C", "endpoint": "IC50", "agent": "HIV-1", "target": "Protease", "result": "<0.05 µM"}
{"smiles": "CC(C)=CCN1Cc2cccc3[nH]c(=S)n(c23)C[C@@H]1C", "read by": "nucleotide incorporation", "changes": "RT-V60T", "endpoint": "fold resistance", "agent": "HIV", "target": "Reverse transcriptase", "result": "8"}
{"smiles": "O=C1c2c(O)c(=O)c(-c3nccs3)cn2CCN1Cc1ccc(Cl)cc1", "read by": "ELISA", "endpoint": "IC50", "agent": "HIV-1", "target": "Integrase", "result": "0.01–0.1 µM"}
{"smiles": "CNc1cccc(S(=O)(=O)N(C[C@@H](O)[C@H](Cc2ccccc2)NC(=O)O[C@H]2CO[C@H]3OCC[C@H]32)CC(C)(C)CCCCNC(=O)OC(C)C)c1", "read by": "fluorescence", "endpoint": "Ki", "agent": "HIV-1", "target": "Protease", "result": "<0.001 µM"}
{"smiles": "CC(C)c1ccc(-n2nnnc2SCC(=O)Nc2ccc(-c3ccc(OCCN4CCCC4)cc3)cc2Cl)c(Br)c1", "read by": "PicoGreen / fluorescence", "changes": "RT-K103 Y181C", "endpoint": "IC50", "agent": "HIV-1", "target": "Reverse transcriptase", "result": "<1 µM"}
{"smiles": "CC(C)(CCCNS(=O)(=O)c1ccccc1)CN(C[C@@H](O)[C@H](Cc1ccccc1)NC(=O)O[C@H]1CO[C@H]2OCC[C@H]21)S(=O)(=O)c1ccc2c(c1)OCO2", "read by": "fluorescence", "endpoint": "Ki", "agent": "HIV-1", "target": "Protease", "result": "<0.001 µM"}
{"smiles": "CC(C)(C#Cc1ccc(NC(=O)CSc2nnnn2-c2ccc(C(C)(C)C)cc2Cl)c(Cl)c1)OCC(=O)N1CCOCC1", "read by": "PicoGreen / fluorescence", "endpoint": "IC50", "agent": "HIV-1", "strain or isolate": "WT", "target": "Reverse transcriptase", "result": "<1 µM"}
{"smiles": "CC(C)[C@H](NC(=O)[C@@H]1CCCN1C(=O)[C@@H](O)[C@H](Cc1ccccc1)NC(=O)OC(C)(C)C)C(=O)OC1CCCCC1", "endpoint": "inhibition", "tested at": "1000 µM", "agent": "HIV-1", "target": "Protease", "result": "36.1%"}
{"smiles": "O=c1ccn2c(CO)cn(Cc3cccc(Cl)c3)c(=O)c2c1O", "read by": "ELISA", "endpoint": "IC50", "agent": "HIV-1", "target": "Integrase", "result": "0.01–0.1 µM"}
{"smiles": "O=C(CSc1nnnn1-c1ccc(C2CC2)cc1Cl)Nc1ccc(-c2ccc(OCCN3CCCC3)cc2)c(F)c1Cl", "read by": "PicoGreen / fluorescence", "endpoint": "IC50", "agent": "HIV-1", "strain or isolate": "WT", "target": "Reverse transcriptase", "result": "<1 µM"}
{"smiles": "CN(C)c1cccc(S(=O)(=O)N(C[C@@H](O)[C@H](Cc2ccccc2)NC(=O)O[C@H]2CO[C@H]3OCC[C@H]32)CC(C)(C)CCC#N)c1", "read by": "fluorescence", "endpoint": "Ki", "agent": "HIV-1", "target": "Protease", "result": "<0.001 µM"}
{"smiles": "CC(C)(C)NC(=O)[C@H]1N(C(=O)[C@@H](O)[C@H](Cc2ccccc2)NC(=O)[C@H](CC(N)=O)NC(=O)COc2cccc3cnccc23)CSC1(C)C", "endpoint": "inhibition", "tested at": "0.05 µM", "agent": "HIV-1", "target": "Protease", "result": "97.6%"}
{"smiles": "O=C(CSc1nnnn1-c1ccc(C2CC2)cc1Cl)Nc1ccc(C#CCCN2CCCC2)cc1Cl", "read by": "PicoGreen / fluorescence", "changes": "RT-K103 Y181C", "endpoint": "IC50", "agent": "HIV-1", "target": "Reverse transcriptase", "result": "<1 µM"}

2 of the rows above, restated:

smiles	read by	changes	endpoint	tested at	agent	strain or isolate	target	result
CC(C)(C#Cc1ccc(NC(=O)CSc2nnnn2-c2ccc(C(C)(C)C)cc2Cl)c(Cl)c1)OCC(=O)N1CCOCC1	PicoGreen / fluorescence	-	IC50	-	HIV-1	WT	Reverse transcriptase	<1 µM
CC(C)=CCN1Cc2cccc3[nH]c(=S)n(c23)C[C@@H]1C	nucleotide incorporation	RT-V60T	fold resistance	-	HIV	-	Reverse transcriptase	8

Two numbers with a dash give a range or band. Neighbouring rows are from separate reports. Inhibition is in % at the dose shown (toxicity tests: loss of growth or viability). Fold resistance has wild type as its base. ICn: concentration for n% inhibition.